The test has as its system CD4+ T cells of MAIDS-infected C57BL6 mice.
Where [1] appears, read: after stimulation with staphylococcal enterotoxin SEB.

The structures appear in SMILES notation.

On to `Nc1ncnc2c1nc(Br)n2[C@@H]1O[C@@H]2CO[P@@](=O)(S)O[C@H]2[C@H]1O`, for which, under setting [1], the “IFN-γ secretion of CD4+ T cells from the infected mice” value is “slightly increasing” and the “TNF-α secretion of CD4+ T cells from the infected mice after stimulation with SEB” value is given as “reducing”. For the same compound, for the setting “cells of treated infected mice”, the “proliferative responses to anti-CD3 mAb” value is “increased”. The “significance (p) of effect on SEB stimulated TNF-α secretion by CD4 T cells” value (infected mice, intracytoplasmic staining, FIG. 1) was 0.0012. Moreover, the “TNF-α secretion by CD4 T cells of infected mice” value (treatment of infected mice, FIG. 1) is “dramatically reduced”.

For the origin of these results see patent publication US8153609B2 (priority 2004, dated 2012).
